Test results taken from patent publication US8829030B2 (priority 2002, dated 2014).

Sequences of proteins named here, by UniProt entry; tags and fusion partners are left off. Residues count along the entry.
UniProt P26663, 2420-3010 limits assumed: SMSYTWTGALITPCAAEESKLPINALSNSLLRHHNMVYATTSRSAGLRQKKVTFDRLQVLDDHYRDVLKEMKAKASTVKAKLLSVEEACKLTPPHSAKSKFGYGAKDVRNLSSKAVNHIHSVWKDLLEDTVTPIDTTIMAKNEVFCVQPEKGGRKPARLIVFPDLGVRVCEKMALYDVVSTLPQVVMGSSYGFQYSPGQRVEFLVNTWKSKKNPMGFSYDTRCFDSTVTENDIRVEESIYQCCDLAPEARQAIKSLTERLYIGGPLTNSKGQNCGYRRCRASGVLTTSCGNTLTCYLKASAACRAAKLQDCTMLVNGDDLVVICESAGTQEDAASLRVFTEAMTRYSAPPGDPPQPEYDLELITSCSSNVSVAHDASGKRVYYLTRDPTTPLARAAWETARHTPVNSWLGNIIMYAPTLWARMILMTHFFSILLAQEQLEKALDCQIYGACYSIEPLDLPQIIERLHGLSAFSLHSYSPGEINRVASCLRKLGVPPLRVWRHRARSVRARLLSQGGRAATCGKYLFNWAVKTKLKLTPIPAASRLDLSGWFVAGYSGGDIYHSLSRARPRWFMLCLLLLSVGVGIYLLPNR

Target: recombinant HCV RNA-dependent RNA polymerase (NS5B protein) (Hepatitis C virus genotype 1b, UniProt P26663)
Experiment: In vitro HCV RdRp Flashplate scintillation proximity assay (STREP-FLASH ASSAY)
Format: biochemical, HCV-Bk strain
Details: read-out: Activity (polymerase activity, IC50); 100 nM recombinant HCV NS5B, 25 μM UTP, polyrA/biotinylated-oligo dT, 2 hrs at room temperature

`CC1CCC(C(=O)N(c2cc(-c3ccccc3)sc2C(=O)O)C2CCNCC2)CC1` (stereo not shown) was tested. Which IC50 did it give?
The IC50 was < 5 µM.
